Source: the supplement of paper PMC9931576
Human monoclonal antibodies against the spike receptor-binding domain (heavy:light variable regions). IC50 against pseudoviruses bearing the spike of naturally observed variants; lower = stronger; >10 µg/ml means not reached at the top dose. No active / inactive call. The stated detection limit is 0.0005 µg/ml; values near or below 0.001 µg/ml lie at the floor of the assay.

B1: BD57-0351 (protein)
chain 1: QVTLRESGPALVKPTQTLTLTCTFSGFSLNTNLMSVAWIRQPPGKALEWLARIDWDDDKFYSPAVKTRLTISKDTSKNQVVLTMTTMDPLDTATYYCARMRLGGFQFHADYWGQGTQVAVSS
chain 2: QSVLTQPPSVSAAPGQKVTISCSGSSSNIGDNYVSWYQQLPGTAPKLLIYDNNKRPSGIPDRFSGSKSGTSATLGITGLQTGDEADYYCGTWDSSLNSGVFGGGTRLTVL
B2: BD57-0294 (protein)
chain 1: QITLKESGPTLVKPTQTLTLTCTFSGFSLSTSGVGVAWIRQPPGKALEWLALIYWDDKKHYSPSLQSRLTITKDTSKNQVVLMMTNMDPLDTGTYYCAHIYDFWSGYSGGWGQGSLVTVSS
chain 2: DIQMTQSPSSLSASVGDRVTITCRASQTISSYLNWYQQKPGKAPKLLIYAAFNFQSGVPARFSGSGSGTDFTLTISSLQPEDFATYYCQQSYSFPWTFGQGTKVEIK
B3: BD57-0307 (protein)
chain 1: QVQLVQSGAEVRKPGASVKVSCKASGYTFTKYFLHWVRQAPGQGLEWMGIINPSAGSPDYAQKFQGRVTMTRDTSTNTVYMELSSLRSDDTAVYYCARSHHIVVAALGDYWGQGTLVTVSS
chain 2: QTVVTQEPSLTVSPGGTVTLTCASSTGAVTSDYFPNWFQQKPGQAPTALIYSTGNKYSWTPARFSGSLLGGKAALALSGVQPEDEADYYCLLYYGGAWVFGGGTSLTVL
B4: BD57-0354 (protein)
chain 1: EVQLVESGGGLVQPGGSLRLSCAASGFTFSSYSMNWVRQAPGKGLEWVSYISSSSSPIYYADSVKGRFTISRDNAKNSLYLQMNSLRDEDTAVYYCARDSSYNWNHDLDYWGQGTLVTVSS
chain 2: EIVLTQSPATLSLSPGERATLSCRASQSISSFLAWYQQKPGQAPRLLIYDASNRATGIPARFSGSGSGTDFTLTISSLEPEDFAVYYCQQRSNWPQTFGQGTRLEIK
B5: BD57-0343 (protein)
chain 1: QVQMVESGGGVVQPGRSLRLSCVVSGFTFSTYGMHWVRQAPGKGLEWVAVMWYDGTNQDYTDSVKGRFTISRDNSKNTLYLEMNSLRVEDTAVYFCAREAYYYGSSGENYFQYYMDVWGKGTTVTVSS
chain 2: QSALTQPRSVSGSPGQSVTISCTGTSSDVGGYNYVSWYQHHPGKAPKVMIYDVNKRPSGVPDRFSGSKSDNTASLTISGLQSEDEADYYCCSYAGTYTYVFGTGTTVSVL
B6: BD57-0334 (protein)
chain 1: QITLRESGPTLVKPTQTLTLTCTVSGFSLGSAGVGVGWIRQPPGKALEWLALIYRDDDKRYSPSLNTRLTITKDTSKNLVVLTMADVDPLDTATYYCAQSIYGTNFFGPWGQGTLVIVSS
chain 2: EIVLTQSPATLSLSPGERATLSCRASQGAISYLAWYQQRPGQAPRLLIYDSSKRATGIPARFSGSGSGTDFTLTISSLEPEDFAVYYCQLRSNWPPMYTFGQGTKLEIK
B7: BD57-0355 (protein)
chain 1: QYQLVQSGAEVKKPGSSVKVSCKASGGSLSNFAVSWVRQAPGQGLEWMGGIVPILGTTDYAQHFQGRVTITVDESMSTAYMELTSLRSADTAVYFCATGVRYCTSDSCSSAYFRDWGQGTLVTVSS
chain 2: EIVLTQSPGTLSLSPGERATLSCRASQRISATHLAWYQQQPGQAPRLLIYGTSSRATGVPDRFSGSGSGTDFTLTISRLEPEDFAVYYCQQYGSSPRTFGQGTKVEIK
B8: BD57-0324 (protein)
chain 1: EVQVVESGGGLVQPGRSLRLSCAASGFTFDDYAMHWVRQAPGKGLEWVSGTSWNSGTIGYADSVKGRFIISRDNAKNSLYLQMTRLRDDDTALYYCVKDKKTSYGSGSYRWDASFYFDHWGQGTLVIVSS
chain 2: DIQMTQSPSSLSASVGDRVTITCQASQDINNYLNWYQQKPGKAPSLLIYDASNLETGVPSRFSGSGSGTDFTFTISSLQPEDIATYYCQQFDDPPLTFGGGTKVEIK
B9: BD57-0299 (protein)
chain 1: QVQLVESGGGVVQPGRSLRLSCAASGFTFTNFDMHWVRQAPGKGLQWVAVISSGGNNKYYEDSVKGRFTLSRDNAKNTLYLQMNSLRVEDTAIYYCAKEVGISDNAFKPDGFDIWGQGTLVTVSS
chain 2: SYVLTQAPSVSVAPGKTARITCGGESIGSKSVHWYQQKPGQAPVLLITYDSDRPSGIPERFSGSNSGNTATLTISGVEAGDEADYYCQVWDIGVVFGGGTKLTVL
B10: BD57-0311 (protein)
chain 1: QVQLVESGGGVVQPGRSLRLSCVGSGFTFNTYAMHWVRQSPGKGLEWVAVVSSDGSDKYYADSVRGRLTISRDNSKNTLYLQMNNLSAEDAAVYYCARDLYIAVAGKLHYYNGVDVWGQGTTVTVSS
chain 2: DIQMTQSPSSVSASVGDRVTITCRASQDIANWLAWYQQKPGKAPKLLIYSASTLQSGVPSRFSGSGFGTDFTLSISSLQPEDFGTYYCQQAKSFPQTFGQGTVLEIK
B11: BD57-0337 (protein)
chain 1: QVQLRQWGAGLLKPSETLSLTCDVYGGSFSGYFWSWIRQPPGKGLEWIGDINHSGSTNYNPSLKSRVTISEDTSKHQFSLKLTSVTAADTAIYYCARGGWVYYGSQILPFDYWGQGTLVTVSS
chain 2: DIVMTQSPDSLAGSLGERATINCKSSQSVLYSTNNKNYLAWYQQKPGQPPKLLFYWASTRESGVPDRFSGSGSGTDFTLTISSLQAEDVAIYYCQQYYSTPLTFGGGTKVEIK
B12: BD57-0312 (protein)
chain 1: EVQLVESGGGLVQPGGSLRLSCAASGFKFDDYAMHWVRQAPGKGLEWVSGISWDSGGLGYADSVKGRFTISRDNAKNSLYLQMNSLRSEDTAFYYCAKETSTSCYTACGSLDNWGQGALVTVSS
chain 2: QSALTQPASVSGSPGQSITISCTGTSRDVGNYNLVSWYQQHPGKAPKLMIYEVSKRPSGVSSRFSGSKSGNTASLTISGLQAEDEADYFCWSYAGFSTLLIGGGTRVTVL

The binders below were run against SARS-CoV-2 Omicron BA.1 spike pseudovirus (assay: pseudovirus neutralization IC50; higher = weaker neutralization).
Method: (§1)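 Single-round VSV luciferase pseudovirus mixed with antibody dilutions for 1 h and put on Huh-7 cells for about a day; IC50 from the dose curve.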
With B1 the “pseudovirus neutralization IC50” value was > 10 µg/mL. For B2, the “pseudovirus neutralization IC50” value was > 10 µg/mL. With B3 the “pseudovirus neutralization IC50” value was 0.36 µg/mL. For B4, the “pseudovirus neutralization IC50” value was 1.41 µg/mL. B5 was tested, and the “pseudovirus neutralization IC50” value was 0.108 µg/mL. In the case of B6, the “pseudovirus neutralization IC50” value is reported as > 10 µg/mL. B7 was tested, and the “pseudovirus neutralization IC50” value was > 10 µg/mL. With B8 the “pseudovirus neutralization IC50” value was 0.105 µg/mL. In the case of B9, the “pseudovirus neutralization IC50” value is reported as 3.59 µg/mL. With B10 the “pseudovirus neutralization IC50” value was 5.01 µg/mL. B11 was tested, and the “pseudovirus neutralization IC50” value was 0.454 µg/mL. In the case of B12, the “pseudovirus neutralization IC50” value is reported as 4.46 µg/mL.

What follows are binders tested against SARS-CoV-2 Omicron BA.2 spike pseudovirus in the same assay as above.
Method: as §1
In the case of B1, the “pseudovirus neutralization IC50” value is reported as 0.00198 µg/mL. B2 was tested, and the “pseudovirus neutralization IC50” value was > 10 µg/mL. B3 was tested, and the “pseudovirus neutralization IC50” value was 0.552 µg/mL. For B4, the “pseudovirus neutralization IC50” value was 0.0239 µg/mL. B5 was tested, and the “pseudovirus neutralization IC50” value was 0.337 µg/mL. B6 was tested, and the “pseudovirus neutralization IC50” value was > 10 µg/mL. B7 was tested, and the “pseudovirus neutralization IC50” value was > 10 µg/mL. With B8 the “pseudovirus neutralization IC50” value was 0.0851 µg/mL. For B9, the “pseudovirus neutralization IC50” value was 4.11 µg/mL. In the case of B10, the “pseudovirus neutralization IC50” value is reported as 0.0141 µg/mL. With B11 the “pseudovirus neutralization IC50” value was 1.09 µg/mL. For B12, the “pseudovirus neutralization IC50” value was 6.9 µg/mL.

These binders were tested against SARS-CoV-2 Omicron BA.2.75 spike pseudovirus in the same assay as above.
Method: as §1
B1 was tested, and the “pseudovirus neutralization IC50” value was 1.41 µg/mL. With B2 the “pseudovirus neutralization IC50” value was > 10 µg/mL. For B3, the “pseudovirus neutralization IC50” value was 0.0528 µg/mL. With B4 the “pseudovirus neutralization IC50” value was 0.432 µg/mL. With B5 the “pseudovirus neutralization IC50” value was 0.362 µg/mL. With B6 the “pseudovirus neutralization IC50” value was > 10 µg/mL. With B7 the “pseudovirus neutralization IC50” value was 0.935 µg/mL. With B8 the “pseudovirus neutralization IC50” value was 0.0924 µg/mL. In the case of B9, the “pseudovirus neutralization IC50” value is reported as 5.27 µg/mL. In the case of B10, the “pseudovirus neutralization IC50” value is reported as 5.3 µg/mL. For B11, the “pseudovirus neutralization IC50” value was 0.749 µg/mL. With B12 the “pseudovirus neutralization IC50” value was 7.47 µg/mL.

These binders were tested against SARS-CoV-2 Omicron BA.5 spike pseudovirus in the same assay as above.
Method: as §1
With B1 the “pseudovirus neutralization IC50” value was 0.000883 µg/mL. For B2, the “pseudovirus neutralization IC50” value was > 10 µg/mL. For B3, the “pseudovirus neutralization IC50” value was 2.21 µg/mL. For B4, the “pseudovirus neutralization IC50” value was 0.00708 µg/mL. With B5 the “pseudovirus neutralization IC50” value was 0.455 µg/mL. With B6 the “pseudovirus neutralization IC50” value was > 10 µg/mL. In the case of B7, the “pseudovirus neutralization IC50” value is reported as 2.6 µg/mL. In the case of B8, the “pseudovirus neutralization IC50” value is reported as 0.159 µg/mL. For B9, the “pseudovirus neutralization IC50” value was 3.07 µg/mL. In the case of B10, the “pseudovirus neutralization IC50” value is reported as 0.00804 µg/mL. For B11, the “pseudovirus neutralization IC50” value was 0.766 µg/mL. B12 was tested, and the “pseudovirus neutralization IC50” value was 9.31 µg/mL.

Each binder was assayed against SARS-CoV-2 Omicron BQ.1.1 spike pseudovirus in the same assay as above.
Method: as §1
B1 was tested, and the “pseudovirus neutralization IC50” value was > 10 µg/mL. For B2, the “pseudovirus neutralization IC50” value was > 10 µg/mL. For B3, the “pseudovirus neutralization IC50” value was > 10 µg/mL. With B4 the “pseudovirus neutralization IC50” value was > 10 µg/mL. B5 was tested, and the “pseudovirus neutralization IC50” value was > 10 µg/mL. For B6, the “pseudovirus neutralization IC50” value was > 10 µg/mL. For B7, the “pseudovirus neutralization IC50” value was > 10 µg/mL. For B8, the “pseudovirus neutralization IC50” value was > 10 µg/mL. With B9 the “pseudovirus neutralization IC50” value was > 10 µg/mL. With B10 the “pseudovirus neutralization IC50” value was > 10 µg/mL. For B11, the “pseudovirus neutralization IC50” value was 3.01 µg/mL. With B12 the “pseudovirus neutralization IC50” value was 8.36 µg/mL.

These binders were tested against SARS-CoV-2 Omicron XBB spike pseudovirus in the same assay as above.
Method: as §1
In the case of B1, the “pseudovirus neutralization IC50” value is reported as > 10 µg/mL. B2 was tested, and the “pseudovirus neutralization IC50” value was > 10 µg/mL. B3 was tested, and the “pseudovirus neutralization IC50” value was > 10 µg/mL. For B4, the “pseudovirus neutralization IC50” value was > 10 µg/mL. In the case of B5, the “pseudovirus neutralization IC50” value is reported as > 10 µg/mL. B6 was tested, and the “pseudovirus neutralization IC50” value was > 10 µg/mL. In the case of B7, the “pseudovirus neutralization IC50” value is reported as > 10 µg/mL. In the case of B8, the “pseudovirus neutralization IC50” value is reported as 0.286 µg/mL. With B9 the “pseudovirus neutralization IC50” value was 2.47 µg/mL. B10 was tested, and the “pseudovirus neutralization IC50” value was > 10 µg/mL. In the case of B11, the “pseudovirus neutralization IC50” value is reported as 2.11 µg/mL. For B12, the “pseudovirus neutralization IC50” value was 5.74 µg/mL.

What follows are binders tested against SARS-CoV-2 early D614G spike pseudovirus in the same assay as above.
Method: as §1
For B1, the “pseudovirus neutralization IC50” value was 0.000963 µg/mL. B2 was tested, and the “pseudovirus neutralization IC50” value was 3.38 µg/mL. B3 was tested, and the “pseudovirus neutralization IC50” value was 0.00358 µg/mL. In the case of B4, the “pseudovirus neutralization IC50” value is reported as 0.00687 µg/mL. With B5 the “pseudovirus neutralization IC50” value was 0.161 µg/mL. With B6 the “pseudovirus neutralization IC50” value was > 10 µg/mL. In the case of B7, the “pseudovirus neutralization IC50” value is reported as 0.00149 µg/mL. For B8, the “pseudovirus neutralization IC50” value was 0.032 µg/mL. In the case of B9, the “pseudovirus neutralization IC50” value is reported as > 10 µg/mL. With B10 the “pseudovirus neutralization IC50” value was 0.00292 µg/mL. With B11 the “pseudovirus neutralization IC50” value was 0.884 µg/mL. In the case of B12, the “pseudovirus neutralization IC50” value is reported as 3.58 µg/mL.
